Experimental data as given in publication PMC5959882, “Activity of acetyltransferase toxins involved in Salmonella persister formation during macrophage infection” (2018).

Protein sequences, listed by entry. Tags and fused reporters are not part of them. Lines headed by an entry give the natural chain unless they say otherwise; changes in a name come on top.
UniProt A0A0F6B8D8: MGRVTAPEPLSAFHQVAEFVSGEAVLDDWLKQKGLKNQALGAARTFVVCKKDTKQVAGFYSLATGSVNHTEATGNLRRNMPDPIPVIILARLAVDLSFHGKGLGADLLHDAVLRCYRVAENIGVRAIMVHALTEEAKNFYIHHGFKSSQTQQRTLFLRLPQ

Molecular target: TacT (Salmonella enterica, UniProt A0A0F6B8D8)
Assay: acetylation of aminoacyl-tRNA, acid-urea PAGE autoradiography
Details: co-substrate aminoacyl-tRNA; 0.2 mM [14C]Ac-CoA in cell-free expression assay; labelled compound

CC(=O)SCCNC(=O)CCNC(=O)[C@H](O)C(C)(C)COP(=O)(O)OP(=O)(O)OC[C@H]1O[C@@H](n2cnc3c(N)ncnc32)[C@H](O)[C@@H]1OP(=O)(O)O
acetylation of aminoacyl-tRNA, acid-urea PAGE autoradiography: purified TacT, TacT2STm, TacT2SEn or TacT3, added from the onset of the assay
